We go through 2 molecules from PMC2910439, “Imperatoxin A, a Cell-Penetrating Peptide from Scorpion Venom, as a Probe of Ca^2+-Release Channels/Ryanodine Receptors” (Pharmaceuticals, 2010).

The test system of this data set is intact mouse ventricular myocytes. The data set is classed as cell-based. The following applies: confocal; for distribution of fluorescence in perfused cells: 1 μM perfusion. As to the method: To visualize the cell-penetrating properties of Alexa-IpTxa in intact cells, ventricular cardiomyocytes were enzymatically isolated and incubated with 5 μM Alexa-IpTxa and Alexa 488-Wheat Germ Agglutinin (10 μg/mL) for 30 min at room temperature (see Experimental Methods). The distribution of Alexa-546-IpTxa (red fluorescence) and WAG-Alexa-488 (green fluorescence) were monitored in living, unfixed cardiac myocytes.
We next sought to establish a time-course for the translocation of Alexa-IpTxa across the plasma membrane of intact cardiomyocytes. […] Clear intracellular localization of fluorescence is seen only with Alexa-IpTxa, as early as 10 min after incubation (panel D), but more intensely after 20 min incubation (panel F). In order to refine the time-course of Alexa-IpTxa penetration into cardiomyocytes, we continuously monitored the evolution of fluorescence in 3 regions of interest (ROI) corresponding to the plasma membrane and adjacent cytosol (ROI-1), the bulk cytosol (ROI-2), and the nucleus (ROI-3). A fourth ROI (not shown) was defined to monitor changes in fluorescence of the bath solution. Animations of IpTxa translocation into cells are available online as supplementary data (URL: http://www.mdpi.com/1424-8247/3/4/1093/S1).
Isolated cardiac myocytes were incubated with Alexa-546-IpTxa (5 μM) with or without WGA-Alexa 488 (10 μg/mL) for 30 min in the dark. Images were acquired with a BioRad MR-1 confocal microscope coupled to a Nikon Disphot microscope and an X60 oil immersion objective using the Lasersharp 2000 software. Confocal images are 0.25 μm sections. All experiments were performed at room temperature.
Ventricular myocytes were imaged with a Zeiss META 5 confocal microscope equipped with laser scanning. Three regions of interest were delineated corresponding to the plasma membrane (ROI-1), […]. Changes in fluorescence intensity in these regions were monitored and analyzed. Alexa-546-IpTxa fluorescence was excited with the 488 nm line of an argon laser, and emitted light was filtered by a LP 585 filter. […]

Starred links: 1 amine or outer side, 2 acyl side, 3 side chain; linkers in the order of their positions; H or OH if unused. Positions of bridges follow the written chain, without caps; N, C: chain ends. Non-standard residues stand in square brackets, D forms with d. Residues, ends and D or L forms follow the SMILES beside them. *: point of attachment. X1 = CC1CC(C)(C)Nc2c1cc1c(c2S(=O)(=O)O)Oc2c(S(=O)(=O)O)c3c(cc2=C1c1c(Cl)c(SCC(=O)*)c(Cl)c(Cl)c1C(=O)O)C(C)CC(C)(C)N=3; X2 = N=C(CCCSC1CC(=O)N(CCCCCN[*:1])C1=O)NCC(=O)[*:2]

As to `CC(C)C[C@@H]1NC(=O)[C@H](Cc2c[nH]cn2)NC(=O)[C@@H]2CCCN2C(=O)[C@H](CC(C)C)NC(=O)[C@@H](NC(=O)[C@H](CC(=O)O)NC(=O)CNC(=N)CCCSC2CC(=O)N(CCCCCNC(=O)CSc3c(Cl)c(Cl)c(C(=O)O)c(C4=c5cc6c(c(S(=O)(=O)O)c5Oc5c4cc4c(c5S(=O)(=O)O)NC(C)(C)CC4C)=NC(C)(C)CC6C)c3Cl)C2=O)CSSC[C@@H]2NC(=O)[C@@H]3CSSC[C@@H](C(=O)N[C@@H](CCCNC(=N)N)C(=O)O)NC(=O)[C@H](CCCNC(=N)N)NC(=O)[C@H](CCCCN)NC(=O)[C@H](CCC(=O)O)NC(=O)[C@H](C)NC(=O)[C@H](CC(N)=O)NC(=O)[C@H]([C@@H](C)O)NC(=O)CNC(=O)[C@H](CCCNC(=N)N)NC(=O)[C@H](CCCNC(=N)N)NC(=O)[C@H](CCCCN)NC(=O)[C@H](CSSC[C@H](NC(=O)[C@H](CCCNC(=N)N)NC(=O)[C@H](CCCCN)NC1=O)C(=O)N[C@@H](CCCCN)C(=O)N[C@@H](C)C(=O)N[C@@H](CC(=O)O)C(=O)N[C@@H](CC(N)=O)C(=O)N[C@@H](CC(=O)O)C(=O)N3)NC(=O)[C@H](CCCCN)NC(=O)[C@H](CCCCN)NC(=O)CNC2=O` (stereo partly drawn) [Alexa-IpTxa] (X1-[X2]DCLPHLKRCKADNDCCGKKCKRRGTNAEKRCR-OH; disulfide 3-17, 10-21, 16-32; C-terminus assumed), the “distribution of fluorescence in perfused cells” value is listed as “fluorescence intensity was greater in all cellular compartments than that observed in the bath”. Besides, the “intracellular localization of fluorescence” value (5 μM, 30 min at room temperature, living unfixed myocytes, co-stained with Alexa 488-WGA 10 μg/mL) is “localizes in the sarcoplasm of the cell”. In the case of `CC1CC(C)(C)Nc2c1cc1c(c2S(=O)(=O)O)Oc2c(S(=O)(=O)O)c3c(cc2=C1c1c(Cl)c(SCC(=O)NCCCCCN2C(=O)C=CC2=O)c(Cl)c(Cl)c1C(=O)O)C(C)CC(C)(C)N=3` (stereo not drawn) [Alexa-maleimide, Alexa-Fluor-546-C5-maleimide, reference compound], the “distribution of fluorescence in perfused cells” value was “only labeling of the membrane”.
